Pooled drug test results. Numbers come from NIAID ChemDB, via PubChem.

ECn is the concentration giving n% inhibition of infection, replication or growth.

SMILES	read by	read-out	dose	protein	strain	mutations	test	agent	cell line	value
Fc1ccccc1N1CCN(c2cncc(-c3csc4ccccc34)n2)CC1	-	inhibition	10 µM	UL97 kinase	-	-	target	Cytomegalovirus	-	>15%
O=C(Nc1ccc(Cl)c(C(F)(F)F)c1)C(=O)c1c(O)c2ccccc2oc1=O	BACTEC	MIC bound	-	-	H37Rv	-	culture	Mycobacterium tuberculosis	-	>12.5 µg/mL
CCOc1ccc(-c2cncc(N3CCN(c4ccncc4)CC3)n2)cc1	-	inhibition	1 µM	UL97 kinase	-	-	target	Cytomegalovirus	-	<50%
N#CCC(=O)c1cc2ccc(S(=O)(=O)Nc3ccc4[nH]c(=S)[nH]c4c3)cc2o1	-	MIC	-	-	H37Rv	-	culture	Mycobacterium tuberculosis	-	>100 µg/mL
COC(=O)[C@@H]1[C@H](O)[C@H](C)C(O)[C@H](C)/C=C\C=C(/C)C(=O)Nc2c(C)c(OC(C)=O)c3c(c2O)C(=O)C(C)=C2OCOC(=C23)/C(C)=C/[C@@](C)(O)[C@H](O)[C@@H](C)[C@H]1OC(C)=O	BACTEC	MIC	-	-	H37Rv	-	culture	Mycobacterium tuberculosis	-	≥12.8 µg/mL
Cc1ccc(C(C)C)c(O)c1	-	MIC	-	-	H37Rv	-	culture	Mycobacterium tuberculosis	-	50 µg/mL
CO/C(=N\N1CC1C(F)(F)F)c1ccncc1	BACTEC	inhibition	0.5 µM	-	-	-	culture	Mycobacterium tuberculosis	-	0%
O=C(Nc1nnc(NCCc2cccs2)s1)c1ccc(I)cc1	-	IC50	-	Polymerase	-	-	target	Human cytomegalovirus	-	>25 µM
NNC(=O)C(=O)Nc1ccc(F)cc1	BACTEC	MIC bound	-	-	H37Rv	-	culture	Mycobacterium tuberculosis	-	>12.5 µg/mL
N#Cc1ccc(N)cc1	-	MIC	-	-	H37Rv	-	culture	Mycobacterium tuberculosis	-	>100 µg/mL
CC(=O)c1ccc(N2CCN(c3cncc(-c4ccc(F)c(Cl)c4)n3)CC2)cc1	-	IC50	-	UL97 kinase	-	-	target	Cytomegalovirus	-	<100 µM
CCOC(=O)c1ccccc1O	-	MIC	-	-	H37Rv	-	culture	Mycobacterium tuberculosis	-	>100 µg/mL
Fc1ccc(/C=C2/COCC3=C2NC(=S)NC3c2ccc(F)cc2)cc1	BACTEC	MIC bound	-	-	H37Rv	-	culture	Mycobacterium tuberculosis	-	>12.5 µg/mL
CC(CCc1ccccc1)NCCNC[C@]1(C)CCC[C@]2(C)c3ccc(C(C)C)cc3CC[C@@H]12	-	MIC	-	-	-	-	culture	Mycobacterium tuberculosis	-	12.5 µM
COc1ccc(CNc2nnc(NC(=O)c3ccc(I)cc3)s2)cc1OC	-	IC50	-	Polymerase	-	-	target	Human cytomegalovirus	-	<25 µM
Brc1ccc2c(c1)oc1c3cccnc3ccc21	-	MIC	-	-	H37Rv	-	culture	Mycobacterium tuberculosis	-	>100 µg/mL
O=C(Nc1nnc(NCC(c2ccccc2)c2ccccc2)s1)c1ccc(S(=O)(=O)F)cc1	-	IC50	-	Polymerase	-	-	target	Human cytomegalovirus	-	<25 µM
CC(=O)O[C@H]1C(=O)[C@@]2(C)[C@H]([C@H](OC(=O)c3ccccc3)[C@]3(O)C[C@H](OC(=O)[C@H](O)[C@@H](NC(=O)c4ccccc4)c4ccccc4)C(C)=C1C3(C)C)[C@]1(OC(C)=O)CO[C@@H]1C[C@@H]2O	BACTEC	MIC bound	-	-	H37Rv	-	culture	Mycobacterium tuberculosis	-	>12.5 µg/mL
Nc1ccc(Oc2ccccc2)cc1S(=O)(=O)O	-	MIC	-	-	H37Rv	-	culture	Mycobacterium tuberculosis	-	>100 µg/mL
CN1c2ccc(C3N(C(=O)C(F)(F)F)C=CN3C(=O)C(F)(F)F)cc2Sc2cc(C3N(C(=O)C(F)(F)F)C=CN3C(=O)C(F)(F)F)ccc21	-	MIC	-	-	H37Rv	-	culture	Mycobacterium tuberculosis	VERO	12.5 µg/mL
CC(CO)NCCN[C@@H]1C[C@@H]2C[C@H]([C@H]1C)C2(C)C	-	MIC	-	-	-	-	culture	Mycobacterium tuberculosis	-	12.5 µM
Cc1c([N+](=O)[O-])oc2cc3c(cc12)CCCC3	resazurin	inhibition	6.25 µg/mL	-	H37Rv	-	culture	Mycobacterium tuberculosis	-	66%
Clc1ccc(N2CCN(c3cncc(-c4cccc5ccccc45)n3)CC2)cc1Cl	-	inhibition	10 µM	UL97 kinase	-	-	target	Cytomegalovirus	-	>15%
COc1ccc(CCNCCNC(C)CC(C)C)cc1OC	-	MIC	-	-	-	-	culture	Mycobacterium tuberculosis	-	50 µM
C#CC[C@@H](C(=O)N[C@H](/C=C/C(=O)OCC)C[C@@H]1CCNC1=O)n1cccc(NC(=O)c2cc(C)on2)c1=O	cytopathic effect / XTT	inhibition	0.028 µM	-	Serotype 36	-	culture	Rhinovirus	H1-HELA	90%
O=C(Nc1nnc(NCCN2CCOCC2)s1)c1cccc([N+](=O)[O-])c1	-	IC50	-	Polymerase	-	-	target	Human cytomegalovirus	-	>25 µM
CC(C)=CCN1Cc2cc(Cl)cc3[nH]c(=S)n(c23)C[C@@H]1C	-	EC95	-	-	-	RT-L74V K101E	culture	HIV-1	MT-4	>3 µM
C(=N\Nc1ccccn1)/NN/C=N/Nc1ccccn1	BACTEC	MIC bound	-	-	H37Rv	-	culture	Mycobacterium tuberculosis	-	>12.5 µg/mL
CCO/N=C/c1ccc(OCCC2CCN(c3ccc(C)nn3)CC2)cc1	neutral red	EC50	-	-	Baylor 3 (LDL receptor group 47)	-	culture	Rhinovirus	KB	0.117 µM
O=c1cc(-c2ccccc2)[nH]n1-c1nn[nH]n1	-	MIC	-	-	H37Rv	-	culture	Mycobacterium tuberculosis	-	>100 µg/mL
Fc1cccc(CCNCCNCCCCc2ccccc2)c1	-	MIC	-	-	-	-	culture	Mycobacterium tuberculosis	-	50 µM
Cn1c(=O)c2c(nc3n2CC(CF)O3)n(C)c1=O	resazurin	MIC bound	-	-	H37Rv	-	culture	Mycobacterium tuberculosis	-	>6.25 µg/mL
NS(=O)(=O)c1ccc(CCNc2nnc(NC(=O)c3c(Cl)cccc3Cl)s2)cc1	-	IC50	-	Polymerase	-	-	target	Human cytomegalovirus	-	>25 µM
Oc1ccccc1Sc1ccccc1O	-	MIC	-	-	H37Rv	-	culture	Mycobacterium tuberculosis	-	>100 µg/mL
COc1ccccc1CCNCCNC(C)(C)CC(C)(C)C	-	MIC	-	-	-	-	culture	Mycobacterium tuberculosis	-	50 µM
O=C(Nc1nnc(NC2CCc3ccccc32)s1)c1ccc([N+](=O)[O-])o1	-	IC50	-	Polymerase	-	-	target	Human cytomegalovirus	-	>25 µM
Oc1cccc(O)c1O	-	MIC	-	-	H37Rv	-	culture	Mycobacterium tuberculosis	-	100 µg/mL
Fc1ccc(N2CCCCC2)c(NC(=S)c2ccncc2)c1	kinase activity	inhibition	10 µM	PAK4	-	-	host protein	-	-	8%
COc1ccc(OC)c(CCNCCNCC2(O)CCCCC2)c1	-	MIC	-	-	-	-	culture	Mycobacterium tuberculosis	-	12.5 µM
O=P1(NNc2ncccn2)SC(NN=C2CCCCC2)=NC12CCCCC2	BACTEC	MIC bound	-	-	H37Rv	-	culture	Mycobacterium tuberculosis	-	>12.5 µg/mL
Nc1ccc(Cl)c(Cl)c1	-	MIC	-	-	H37Rv	-	culture	Mycobacterium tuberculosis	-	100 µg/mL
CC1CCCC(NCCNC2CCCCCCC2)C1C	-	MIC	-	-	-	-	culture	Mycobacterium tuberculosis	-	25 µM
C[C@H](Cc1ccc(O)c(O)c1)[C@@H](C)Cc1ccc(O)c(O)c1	broth dilution	MIC100	-	-	CCC 129-2000	-	culture	Candida albicans	-	250 µg/mL
C/C=C(/C)NS(=O)(=O)c1ccc(Br)cc1	-	MIC	-	-	H37Rv	-	culture	Mycobacterium tuberculosis	-	>100 µg/mL
CCC(CC)NCCNC[C@]1(C)CCC[C@]2(C)c3ccc(C(C)C)cc3CC[C@@H]12	-	MIC	-	-	-	-	culture	Mycobacterium tuberculosis	-	25 µM
Nc1ccc(CC(N)C(=O)O)cc1	-	MIC	-	-	H37Rv	-	culture	Mycobacterium tuberculosis	-	>100 µg/mL
NNC(=O)c1ccccc1SSc1ccccc1C(=O)NN	-	MIC	-	-	KM-R	-	culture	Mycobacterium tuberculosis	-	>12.5 µg/mL
c1cc(N2CCN(c3cncc(-c4ccsc4)n3)CC2)ccn1	-	inhibition	1 µM	UL97 kinase	-	-	target	Cytomegalovirus	-	<50%
O=P(O)(O)OC1OC(CO)C(O)C(O)C1O	BACTEC	MIC bound	-	-	H37Rv	-	culture	Mycobacterium tuberculosis	-	>12.8 µg/mL
O=C(Nc1nnc(NCCCCc2ccccc2)s1)c1c(Cl)cccc1Cl	-	IC50	-	Polymerase	-	-	target	Human cytomegalovirus	-	>25 µM
c1ccc(OCCCCOc2ccccc2)cc1	-	MIC	-	-	H37Rv	-	culture	Mycobacterium tuberculosis	-	>100 µg/mL
O=c1[nH]c2ccc(Cl)cc2c2nc3ccccc3n12	BACTEC	inhibition	12.5 µg/mL	-	H37Rv	-	culture	Mycobacterium tuberculosis	-	-3%
COC(=O)C(C=Nc1ccccc1)C(=O)Nc1cccc(Cl)c1	-	MIC	-	-	H37Rv	-	culture	Mycobacterium tuberculosis	-	>100 µg/mL
NC(=O)c1ncn([C@@H]2O[C@H](CO)[C@@H](O)[C@H]2O)n1	BACTEC	inhibition	12.5 µg/mL	-	H37Rv	-	culture	Mycobacterium tuberculosis	-	4%
CCC(CC)[C@H](NC(C)=O)[C@@H]1[C@H](O)[C@@H](C(=O)O)C[C@H]1N=C(N)N	visual reading	EC50	-	-	Influenza A/Washington/05/96 (H3N2)	-	culture	Influenza A virus	MDCK	0.01 µM
COc1ccccc1N1CCN(c2cncc(-c3ccc(F)cc3)n2)CC1	-	IC50	-	UL97 kinase	-	-	target	Cytomegalovirus	-	<10 µM
Cc1ccccc1C(C(=O)O)(c1ccccc1)c1ccccc1	-	MIC	-	-	H37Rv	-	culture	Mycobacterium tuberculosis	-	>100 µg/mL
CC1(C)OC(=O)c2c(cc(N3CCOCC3)oc2=O)O1	BACTEC	MIC bound	-	-	H37Rv	-	culture	Mycobacterium tuberculosis	-	>12.5 µg/mL
CC[C@H](CO)NCCNC[C@]1(C)CCC[C@]2(C)c3ccc(C(C)C)cc3CC[C@@H]12	-	MIC	-	-	-	-	culture	Mycobacterium tuberculosis	-	50 µM
O=Cc1c[nH]c2ccccc12	-	MIC	-	-	H37Rv	-	culture	Mycobacterium tuberculosis	-	>100 µg/mL
O=C(Nc1ccc(Cl)cc1)Nc1ccc(Cl)c(C(F)(F)F)c1	BACTEC	MIC bound	-	-	H37Rv	-	culture	Mycobacterium tuberculosis	-	≤12.5 µg/mL
CCCCCCCCCCCNc1nnc(NC(=O)c2ccc(F)cc2F)s1	-	IC50	-	Polymerase	-	-	target	Human cytomegalovirus	-	<25 µM
C=C1CC(C2OCOC3COCOC32)OC1=O	BACTEC	MIC bound	-	-	H37Rv	-	culture	Mycobacterium tuberculosis	-	>12.5 µg/mL
CC(C)c1cc(C(C)C)c(/C=N/NC(N)=O)c(C(C)C)c1	-	MIC	-	-	H37Rv	-	culture	Mycobacterium tuberculosis	-	>100 µg/mL
O=[N+]([O-])c1cc(C(F)(F)F)cc([N+](=O)[O-])c1N1CCCC(n2cccc2)C1	BACTEC	MIC bound	-	-	H37Rv	-	culture	Mycobacterium tuberculosis	-	>12.5 µg/mL
OCC(O)C(O)C(O)C(O)/C=N/O	-	MIC	-	-	H37Rv	-	culture	Mycobacterium tuberculosis	-	25 µg/mL
C=CCc1ccc(O)c(OC)c1	turbidity	MIC90	-	-	2621	-	culture	Candida glabrata	-	500 µg/mL
c1ccc2c(c1)ccc1ccccc12	-	MIC	-	-	H37Rv	-	culture	Mycobacterium tuberculosis	-	>100 µg/mL
CCCCC(CC)CNc1nnc(NC(=O)c2ccc(Cl)c(Cl)c2)s1	-	IC50	-	Polymerase	-	-	target	Human cytomegalovirus	-	>25 µM
Cc1ccc(N2CCN(c3cncc(-c4cccc5ccccc45)n3)CC2)cc1	-	IC50	-	UL97 kinase	-	-	target	Cytomegalovirus	-	<100 µM
CCOC(=O)c1ccc(N)cc1C(=O)OCC	-	MIC	-	-	H37Rv	-	culture	Mycobacterium tuberculosis	-	>100 µg/mL
COc1ccc(N/C=C2\C(=O)CCc3c2oc2cc(Cl)c(O)c(Cl)c32)cc1	BACTEC	inhibition	12.5 µg/mL	-	H37Rv	-	culture	Mycobacterium tuberculosis	-	10%
Fc1ccc(N2CCN(c3cncc(-c4ccc5ccccc5c4)n3)CC2)c(F)c1	-	IC50	-	UL97 kinase	-	-	target	Cytomegalovirus	-	<10 µM

5 of the rows above, restated:

{"SMILES": "O=C(Nc1nnc(NCCCCc2ccccc2)s1)c1c(Cl)cccc1Cl", "read-out": "IC50", "protein": "Polymerase", "test": "target", "agent": "Human cytomegalovirus", "value": ">25 µM"}
{"SMILES": "CC(=O)O[C@H]1C(=O)[C@@]2(C)[C@H]([C@H](OC(=O)c3ccccc3)[C@]3(O)C[C@H](OC(=O)[C@H](O)[C@@H](NC(=O)c4ccccc4)c4ccccc4)C(C)=C1C3(C)C)[C@]1(OC(C)=O)CO[C@@H]1C[C@@H]2O", "read by": "BACTEC", "read-out": "MIC bound", "strain": "H37Rv", "test": "culture", "agent": "Mycobacterium tuberculosis", "value": ">12.5 µg/mL"}
{"SMILES": "CC(CCc1ccccc1)NCCNC[C@]1(C)CCC[C@]2(C)c3ccc(C(C)C)cc3CC[C@@H]12", "read-out": "MIC", "test": "culture", "agent": "Mycobacterium tuberculosis", "value": "12.5 µM"}
{"SMILES": "COc1ccc(CNc2nnc(NC(=O)c3ccc(I)cc3)s2)cc1OC", "read-out": "IC50", "protein": "Polymerase", "test": "target", "agent": "Human cytomegalovirus", "value": "<25 µM"}
{"SMILES": "CCOC(=O)c1ccccc1O", "read-out": "MIC", "strain": "H37Rv", "test": "culture", "agent": "Mycobacterium tuberculosis", "value": ">100 µg/mL"}

Inhibition is in % at the dose shown (toxicity tests: loss of growth or viability). A number after MIC or MFC names an inhibition level or a share of isolates. ICn: concentration for n% inhibition. Lines come from different laboratories, so protocols vary. MIC bound comes from a single tested concentration. Blank or dashed fields: not listed here.